The record followed here is ChEMBL document CHEMBL2169849, “Identification of antischistosomal leads by evaluating bridged 1,2,4,5-tetraoxanes, alphaperoxides, and tricyclic monoperoxides” (J Med Chem, 2012).

One may read the IC50 as the concentration that gives 50% inhibition.

Assay [1] relates to Schistosoma mansoni. In words: Antischistosomal activity against Schistosoma mansoni NTS incubated for 72 hrs. It counts as functional, organism-based. In a few lines: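 NTS from mechanically transformed cercariae (Liberian strain), 100 per well in Medium 199 + 5% iFCS, penicillin/streptomycin, preincubated 12–24 h at 37°C, 5% CO2. Exposed to 0.37–90 μg/ml (threefold steps) for 72 h. Scored microscopically on a viability scale (death, motility, morphology). DMSO control; duplicates, at least three experiments; IC50 from viability scores.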

The subject of assay [2] is Schistosoma mansoni. The assay is described as follows: Antischistosomal activity against adult Schistosoma mansoni schistosomes incubated for 72 hrs.
Assay [3] has as its system Schistosoma mansoni. In words: Antischistosomal activity against adult Schistosoma mansoni schistosomes incubated for 72 hrs in presence of 120 uM Fe(3)-hemin.

On to `C=CCC1[C@]2(C)OO[C@@]1(C)OO2` (stereo partly drawn), for which the IC50 in assay [1] was 3.4 µM; in assay [2], 49.8 µM. For `CCCCCCC1[C@]2(C)OO[C@@]1(C)OO2` (stereo partly drawn), the figures for the half-inhibitory concentration (IC50) in assay [1], in assay [2] and in assay [3] were 0.2 µM, 61.5 µM and 27.3 µM, respectively. On to `C[C@]12OO[C@](C)(OO1)C2CCC(=O)O` (stereo partly drawn), for which, in assay [1], 58.1 µM corresponded to half-maximal inhibition (IC50).

Turning to `C[C@]12OO[C@](C)(OO1)C2Cc1ccccc1` (stereo partly drawn), the half-inhibitory concentration (IC50) in assay [1] came out at 5 µM; in assay [2] it was 41.4 µM. As to `C[C@]12OO[C@](C)(OO1)C2CC1CO1` (stereo partly drawn), the IC50 turned out to be 1.2 µM in assay [1] and 91.9 µM in assay [3]. `C[C@]12OO[C@](C)(OO1)C2Cc1ccc([N+](=O)[O-])cc1` (stereo partly drawn) yielded a concentration for half-maximal inhibition (IC50) in assay [1] of 4.4 µM. On to `C[C@]12OO[C@](C)(OO1)C2CC(Br)CBr` (stereo partly drawn), for which the IC50 in assay [1] is 3.4 µM; in assay [2], > 89.8 µM; in assay [3] it was > 89.8 µM. On to `CCCCC1[C@]2(C)OO[C@@]1(C)OO2` (stereo partly drawn), for which the IC50 in assay [1] was 0.5 µM; in assay [2], 37.8 µM. On to `C[C@]12OO[C@](C)(OO1)C2CCC#N` (stereo partly drawn), for which the IC50 in assay [1] worked out at 15.3 µM. Still for that read-out and setting: for `CCOC(=O)CCC1[C@]2(C)OO[C@@]1(C)OO2` (stereo partly drawn) the value was 9.8 µM.
